Measured values from several laboratories, pooled; numbers as filed in NIAID ChemDB.

All rows: tests in culture; agent: Aspergillus fumigatus

Two numbers with a dash give a range or band. ECn is the concentration giving n% inhibition of infection, replication or growth. Rows are shuffled and stem from different studies. MIC50, MIC90 and the like: level of inhibition, or share of isolates inhibited. Blank or dashed fields: not listed here.

structure	read by	strain	measure	setting	value
CCC(C)n1ncn(-c2ccc(N3CCN(c4ccc(OC[C@H]5CO[C@](Cn6cncn6)(c6ccc(Cl)cc6Cl)O5)cc4)CC3)cc2)c1=O		17 strains	Geometric mean MIC		0.72 µg/mL
O/N=C/c1ccc[n+](Cc2ccc(C[n+]3cccc(/C=N/O)c3)s2)c1.[Cl-].[Cl-]	broth dilution		EC50		>20 µg/mL
C[C@H]1[C@H](O)[C@@H](C)/C=C/C=C/C=C/C=C/C=C/C=C/C=C/[C@H](O[C@@H]2O[C@H](C)[C@@H](O)[C@H](N)[C@@H]2O)C[C@@H]2O[C@](O)(C[C@@H](O)C[C@@H](O)CC[C@H](O)[C@@H](O)C[C@@H](O)CC(=O)O[C@H]1C)C[C@H](O)[C@H]2C(=O)O		6 strains	Geometric mean MIC		0.25 µg/mL
CCCC(CC(=O)O)c1c2c(c(O)c3c1O[C@@H](C)[C@H](C)C3=O)C=CC(C)(C)O2		CBS 113.26	MIC80		>250 µg/mL
C[C@@H]([C@H](N)C(=O)N[C@H](C(=O)O)[C@H]1O[C@@H](n2ccc(=O)[nH]c2=O)[C@H](O)[C@@H]1O)[C@H](O)c1ccc(O)cn1		13 isolates	MIC50		>64 µg/mL
COc1cccc(C(=O)Oc2c(OC)cc3ccnc4c3c2N(C)C=C4)c1			EC50		>15 µg/mL
CC(C)(O)C1Cc2ccc3c(=O)c4c(O)cccc4oc3c2O1			MIC80		16 µg/mL
CC(C)S(=O)(=O)N1CCN(c2cnn(-c3cc(F)cc(F)c3)c(=O)c2OC2CCC(F)C2)CC1	broth dilution	ND231	MIC		0.5 µg/mL
CC1C=C(c2ccc(Br)c3ccccc23)C(=O)O1		231	MIC		62.5 µM
C[C@H]1[C@H](O)[C@@H](C)/C=C/C=C/C=C/C=C/C=C/C=C/C=C/[C@H](O[C@@H]2O[C@H](C)[C@@H](O)[C@H](N)[C@@H]2O)C[C@@H]2O[C@](O)(C[C@@H](O)C[C@@H](O)CC[C@H](O)[C@@H](O)C[C@@H](O)CC(=O)O[C@H]1C)C[C@H](O)[C@H]2C(=O)O	visual reading	Clinical isolate	MFC		2 µg/mL
CC1C=C(c2ccccc2)C(=O)O1		231	MIC		>125 µM
CCCCCCCCC[C@@H]1CC(=O)NCC(=O)N[C@@H](CCCCNC(C)=O)C(=O)N[C@@H](C(C)C)C(=O)N1		TIMM0063	MIC		>16 µg/mL
CC1C=C(C23CC4CC(CC(C4)C2)C3)C(=O)O1		231	MIC		>125 µM
CCCCCCCCC[C@@H]1CC(=O)NCC(=O)N[C@@H](CCCN)C(=O)N[C@@H](C(C)C)C(=O)N1		TIMM0063	MIC		>32 µg/mL
COc1ccc(CSc2cc(C(N)=S)ccn2)cc1		231	MIC		125 µM
CCN1CCC(O)(/C=C/c2ccc(OC)cc2)C(C(=O)/C=C/c2ccc(OC)cc2)C1		20 strains	Mean MIC		100 µM
Cc1ccc(C2=CC(C)OC2=O)cc1		231	MIC		>125 µM
CC[C@@H]([C@H](C)O)n1ncn(-c2ccc(N3CCN(c4ccc(OC[C@@H]5CO[C@@](Cn6cncn6)(c6ccc(F)cc6F)C5)cc4)CC3)cc2)c1=O		17 strains	Geometric mean MIC		0.09 µg/mL
CCCCCC1C=C(c2cccc(Cl)c2)C(=O)O1		231	MIC		62.5 µM
CC(C)c1ccc(S(=O)(=O)Nc2ccc(CN(C)CC(O)(Cn3cncn3)c3ccc(F)cc3F)cc2)cc1	resazurin	98 003	MIC		2.89 µg/mL
CCCCCCCC/C=C/CCCCCCCCC(=O)Oc1c(OC)cc2ccnc3c2c1N(C)C=C3			EC50		>15 µg/mL
CN(Cc1ccc(S(=O)(=O)NC(C)(C)C)cc1)CC(O)(Cn1cncn1)c1ccc(F)cc1F	resazurin	98 003	MIC		1.88 µg/mL
Cc1ccc(C(C)C)c(O)c1		F07	MIC		0.16 µg/mL
CN(Cc1ccc(S(=O)(=O)Nc2ccc([N+](=O)[O-])cc2)cc1)CC(O)(Cn1cncn1)c1ccc(F)cc1F	resazurin	98 003	MIC		2.57 µg/mL
COC(/C=C/c1ccco1)=C1/C(=O)C=C(C)C1=O		ATCC 90906	MIC		>20 µg/mL
NC(=O)c1cc[n+](Cc2ccc(C[n+]3ccc(C(N)=O)cc3)o2)cc1.[Br-].[Br-]	broth dilution		EC50		>20 µg/mL
Cc1cc(NS(=O)(=O)c2ccc(N)cc2)no1		IFM 47450	MIC		32 µg/mL
NC(=S)c1ccnc(SCc2c(F)cccc2Cl)c1		231	MIC		>500 µM
Cc1cc(C[n+]2cccc(C=NO)c2)on1.[Br-]	broth dilution		EC50		>20 µg/mL
Cc1cc(NS(=O)(=O)c2ccc(N)cc2)nc(C)n1		IFM 47450	MIC		≥256 µg/mL
CCCCCCCCC[C@@H]1CC(=O)NCC(=O)N[C@@H](CCCCN(C)Cc2ccccc2)C(=O)N[C@@H](C(C)C)C(=O)N1		TIMM0063	MIC		>128 µg/mL
C[C@@H](c1nc(-c2ccc(C#N)cc2)cs1)[C@](O)(Cn1cncn1)c1ccc(F)cc1F		256 isolates	MIC90		0.5 µg/mL
CN[C@@H]1[C@H](O[C@@H]2OC[C@@H](O)[C@H](O)[C@H]2O)[C@@H](O)[C@H](O[C@H]2c3cc(C)c(C(=O)N[C@H](C)C(=O)O)c(O)c3-c3c(cc4c(c3O)C(=O)c3cc(OC)cc(O)c3C4=O)[C@@H]2O)O[C@@H]1C		IAM2530	MIC		1.6 µg/mL
C[C@H]1[C@H](O)[C@@H](C)/C=C/C=C/C=C/C=C/C=C/C=C/C=C/[C@H](O[C@@H]2O[C@H](C)[C@@H](O)[C@H](N)[C@@H]2O)C[C@@H]2O[C@](O)(C[C@@H](O)C[C@@H](O)CC[C@H](O)[C@@H](O)C[C@@H](O)CC(=O)O[C@H]1C)C[C@H](O)[C@H]2C(=O)O		5 isolates	MIC		1.25–2.5 µg/mL
CCN1CCC(O)(/C=C/c2ccc(Cl)cc2)C(C(=O)/C=C/c2ccc(Cl)cc2)C1		18 strains (amphotericin B-resistant)	Mean MIC		4.6 µg/mL
NC(=S)c1ccnc(SCc2cccc(F)c2)c1		231	MIC		>1000 µM
CC(C)c1ccc(NS(=O)(=O)c2ccc(CN(C)CC(O)(Cn3cncn3)c3ccc(F)cc3F)cc2)cc1	resazurin	98 003	MIC		3.33 µg/mL
C[C@H]1[C@H](O)[C@@H](C)/C=C/C=C/C=C/C=C/C=C/C=C/C=C/[C@H](O[C@@H]2O[C@H](C)[C@@H](O)[C@H](N)[C@@H]2O)C[C@@H]2O[C@](O)(C[C@@H](O)C[C@@H](O)CC[C@H](O)[C@@H](O)C[C@@H](O)CC(=O)O[C@H]1C)C[C@H](O)[C@H]2C(=O)O		35 isolates	MFC50		8 µg/mL
COc1cc2ccnc3c2c(c1OC(=O)N1CCCC1)N(C)C=C3			EC50		>15 µg/mL
CCC(C)CC(C)CCCCCCCCC(=O)N[C@H]1C[C@@H](O)[C@H](NCCN)NC(=O)[C@@H]2[C@@H](O)CCN2C(=O)[C@H]([C@H](O)CCN)NC(=O)[C@H]([C@H](O)[C@@H](O)c2ccc(O)cc2)NC(=O)[C@@H]2C[C@@H](O)CN2C(=O)[C@H]([C@@H](C)O)NC1=O		256 isolates	MIC90		0.06 µg/mL
Cc1noc(NS(=O)(=O)c2ccc(N)cc2)c1C		IFM 51126	MIC		128 µg/mL
CCCCCCCCCCCCC(C)(O)C1CC(=O)NC(CO)C(=O)N[C@H](C)C(=O)NC(CC(=O)O)C(=O)NC(CC(N)=O)C(=O)NC(CC(N)=O)C(=O)NC(CO)C(=O)NC([C@@H](C)O)C(=O)O1		TIMM0059	MIC		16 µg/mL
O=C(c1cc(O)c(O)c(Br)c1Br)c1cc(O)c(O)c(Br)c1Br		HIC 6094	MIC		>100 µg/mL
CC1=C[C@H]2c3c(ccc4oc5cc(O)cc(O)c5c(=O)c34)OC(C)(C)[C@H]2CC1		CBS 113.26	MIC80		32 µg/mL
COc1cc2ccnc3c2c(c1OC(=O)c1ccc(CCl)cc1)N(C)C=C3			EC50		>15 µg/mL
CC(C)=CCC/C(C)=C/CC/C(C)=C/CC/C=C(/C)CC/C(C)=C\CO	broth dilution	ATCC 16404	MIC100		125 µg/mL
CCC1C=C(c2cccnc2)C(=O)O1		231	MIC		>125 µM
CCCCCCCCCCCC[n+]1cccc2ccccc21	broth dilution	231	MIC	24 h	0.0625 µg/mL
CC1(C)C=Cc2ccc3c(=O)c4c(O)cccc4oc3c2O1			MIC80		>250 µg/mL
CCC(C)CC(C)CCCCCCCCC(=O)N[C@H]1C[C@@H](O)[C@H](NCCN)NC(=O)[C@@H]2[C@@H](O)CCN2C(=O)[C@H]([C@H](O)CCN)NC(=O)[C@H]([C@H](O)[C@@H](O)c2ccc(O)cc2)NC(=O)[C@@H]2C[C@@H](O)CN2C(=O)[C@H]([C@@H](C)O)NC1=O	broth dilution	ND256	MIC		0.03 µg/mL
CCCCCCCCC[C@@H]1CC(=O)NCC(=O)N[C@@H](CCCN=C(N)N)C(=O)N[C@@H](C(C)C)C(=O)N1		TIMM0063	MIC		64 µg/mL
NC(=S)c1ccnc(SCc2ccc([N+](=O)[O-])cc2)c1		231	MIC		>500 µM
CC(/C=C/C=C(\C)C(O)C(C)C(=O)O[C@H]1C[C@@H](C)C=C2C=C[C@]3(C)O[C@@H](O)CC(=O)[C@]3(C)[C@H]21)=C\C=C\C(=O)O		AC3449	MIC		50 µg/mL
CN(Cc1ccc(NS(=O)(=O)c2ccccc2)cc1)CC(O)(Cn1cncn1)c1ccc(F)cc1F	resazurin	98 003	MIC		3.29 µg/mL
CCN1CCC(O)(/C=C/c2ccc(Cl)c(Cl)c2)C(C(=O)/C=C/c2ccc(Cl)c(Cl)c2)C1		20 strains	Mean MIC		24.37 µM
CCC(C)n1ncn(-c2ccc(N3CCN(c4ccc(OC[C@H]5CO[C@](Cn6cncn6)(c6ccc(Cl)cc6Cl)O5)cc4)CC3)cc2)c1=O		62 isolates	MIC90		>8 µg/mL
CC(C)S(=O)(=O)Nc1ccc(CN(C)CC(O)(Cn2cncn2)c2ccc(F)cc2F)cc1	resazurin	98 003	MIC		29 µg/mL
C[C@@H](c1nc(-c2ccc(C#N)cc2)cs1)[C@](O)(Cn1cncn1)c1cc(F)ccc1F		62 isolates	MIC90		2 µg/mL
CCCCCOc1ccc(-c2ccc(-c3ccc(C(=O)N[C@H]4C[C@@H](O)[C@@H](O)NC(=O)[C@@H]5[C@@H](O)[C@@H](C)CN5C(=O)[C@H]([C@H](C)O)NC(=O)[C@H]([C@H](O)[C@@H](O)c5ccc(O)cc5)NC(=O)[C@@H]5C[C@@H](O)CN5C(=O)[C@H]([C@H](C)O)NC4=O)cc3)cc2)cc1		28 isolates	MIC		≤0.03 µg/mL
CC(C)=CCc1ccc(C2C(=O)O/C(=C\c3ccc(O)cc3)C2C)cc1O	broth dilution		MIC100		17.06 µg/mL
CCOC(C)=O			MIC80		32 µg/mL
C[C@@H](c1ncncc1F)[C@](O)(Cn1cncn1)c1ccc(F)cc1F		256 isolates	MIC50		0.25 µg/mL
NC(=S)c1ccnc(SCc2ccc(Cl)cc2)c1		231	MIC		250 µM
CC(N1CCN(c2ccc(-n3cnnn3)cc2)C1=O)[C@](O)(Cn1cncn1)c1ccc(F)cc1F		IFO6344	MIC		0.5 µg/mL
Cc1nnc(NS(=O)(=O)c2ccc(N)cc2)s1		IFM 53412	MIC		≥256 µg/mL
C[C@H]1[C@H](O)[C@@H](C)/C=C/C=C/C=C/C=C/C=C/C=C/C=C/[C@H](O[C@@H]2O[C@H](C)[C@@H](O)[C@H](N)[C@@H]2O)C[C@@H]2O[C@](O)(C[C@@H](O)C[C@@H](O)CC[C@H](O)[C@@H](O)C[C@@H](O)CC(=O)O[C@H]1C)C[C@H](O)[C@H]2C(=O)O		IAM2530	MIC		0.4 µg/mL

10 of the rows above, restated:

| structure | read by | strain | measure | setting | value |
|---|---|---|---|---|---|
| CC(C)(O)C1Cc2ccc3c(=O)c4c(O)cccc4oc3c2O1 |  |  | MIC80 |  | 16 µg/mL |
| COc1cccc(C(=O)Oc2c(OC)cc3ccnc4c3c2N(C)C=C4)c1 |  |  | EC50 |  | >15 µg/mL |
| Cc1cc(C[n+]2cccc(C=NO)c2)on1.[Br-] | broth dilution |  | EC50 |  | >20 µg/mL |
| CCN1CCC(O)(/C=C/c2ccc(Cl)cc2)C(C(=O)/C=C/c2ccc(Cl)cc2)C1 |  | 18 strains (amphotericin B-resistant) | Mean MIC |  | 4.6 µg/mL |
| CC1C=C(c2ccccc2)C(=O)O1 |  | 231 | MIC |  | >125 µM |
| Cc1ccc(C2=CC(C)OC2=O)cc1 |  | 231 | MIC |  | >125 µM |
| NC(=S)c1ccnc(SCc2cccc(F)c2)c1 |  | 231 | MIC |  | >1000 µM |
| CCC(C)n1ncn(-c2ccc(N3CCN(c4ccc(OC[C@H]5CO[C@](Cn6cncn6)(c6ccc(Cl)cc6Cl)O5)cc4)CC3)cc2)c1=O |  | 62 isolates | MIC90 |  | >8 µg/mL |
| NC(=S)c1ccnc(SCc2ccc(Cl)cc2)c1 |  | 231 | MIC |  | 250 µM |
| CCCCCCCCC[C@@H]1CC(=O)NCC(=O)N[C@@H](CCCCNC(C)=O)C(=O)N[C@@H](C(C)C)C(=O)N1 |  | TIMM0063 | MIC |  | >16 µg/mL |